# Biological target: VACV E9 with an uncleaved His-tag (isolated polymerase, construct of ref. 21), vaccinia virus (VACV), P20509 2-1006
# Experiment: BLI
substance,measurement,value
"A20(304-426), C-terminal domain of VACV A20",result,binds
